Anti-infective test results gathered from many reports (values: NIAID ChemDB through PubChem).

All rows: tests in culture; species: Aspergillus terreus

MIC50, MIC90 and the like: level of inhibition, or share of isolates inhibited.

SMILES	read-out	conditions	tested at	strain	method	result
C[C@@H](c1ncncc1F)[C@](O)(Cn1cncn1)c1ccc(F)cc1F	MIC			CBS 594.65	broth dilution	1 µg/mL
CCCCCOc1ccc(-c2cc(-c3ccc(C(=O)N[C@H]4C[C@@H](O)[C@@H](O)NC(=O)[C@@H]5[C@@H](O)[C@@H](C)CN5C(=O)[C@H]([C@H](O)CC(N)=O)NC(=O)[C@H]([C@H](O)[C@@H](O)c5ccc(O)c(OS(=O)(=O)O)c5)NC(=O)[C@@H]5C[C@@H](O)CN5C(=O)[C@H]([C@@H](C)O)NC4=O)cc3)no2)cc1	MIC50				broth dilution	0.016 µg/mL
O=C(NN=CC1C(c2ccccc2)=Nc2ccccc21)N1c2ccccc2C=Cc2ccccc21	zone		500 µg/mL	MTCC-1782	agar diffusion	8 mm
CC(C)CC(O)C(=O)O	MFC100			MRCM 25730	broth dilution / visual reading	36000 µg/mL
C[C@H]1[C@H](O)[C@@H](C)/C=C/C=C/C=C/C=C/C=C/C=C/C=C/[C@H](O[C@@H]2O[C@H](C)[C@@H](O)[C@H](N)[C@@H]2O)C[C@@H]2O[C@](O)(C[C@@H](O)C[C@@H](O)CC[C@H](O)[C@@H](O)C[C@@H](O)CC(=O)O[C@H]1C)C[C@H](O)[C@H]2C(=O)O	MIC			Clinical isolate	XTT	1–2 µg/mL
C[C@H]1[C@H](O)[C@@H](C)/C=C/C=C/C=C/C=C/C=C/C=C/C=C/[C@H](O[C@@H]2O[C@H](C)[C@@H](O)[C@H](N)[C@@H]2O)C[C@@H]2O[C@](O)(C[C@@H](O)C[C@@H](O)CC[C@H](O)[C@@H](O)C[C@@H](O)CC(=O)O[C@H]1C)C[C@H](O)[C@H]2C(=O)O	MIC	48 h		NBRC 6346	broth dilution	4 µg/mL
O=C(NN1C(=O)CSC1C1C(c2ccccc2)=Nc2ccccc21)N1c2ccccc2C=Cc2ccccc21	zone		1000 µg/mL	MTCC-1782	agar diffusion	3 mm
NN(Cc1ccccc1)CC(O)(Cn1cncn1)c1ccc(F)cc1F	MIC80			ATCC 28301		2 µg/mL
C[C@H]1[C@H](O)[C@@H](C)/C=C/C=C/C=C/C=C/C=C/C=C/C=C/[C@H](O[C@@H]2O[C@H](C)[C@@H](O)[C@H](N)[C@@H]2O)C[C@@H]2O[C@](O)(C[C@@H](O)C[C@@H](O)CC[C@H](O)[C@@H](O)C[C@@H](O)CC(=O)O[C@H]1C)C[C@H](O)[C@H]2C(=O)O	MIC100	48 h		ATCC 10690	broth dilution	2 µg/mL
N=C(N)c1ccc(OCCCCCCOc2ccc(C(=N)N)cc2)cc1	MIC				agar diffusion / agar	33 µg/mL
OO	MIC99			UAB698	agar	2000 µM
CCC(C)n1ncn(-c2ccc(N3CCN(c4ccc(OC[C@H]5CO[C@](Cn6cncn6)(c6ccc(Cl)cc6Cl)O5)cc4)CC3)cc2)c1=O	MIC50				broth dilution	0.13 µg/mL
Cc1ccc2c(c1)C(C1SCC(=O)N1NC(=O)N1c3ccccc3C=Cc3ccccc31)C(c1ccccc1)=N2	zone		750 µg/mL	MTCC-1782	agar diffusion	13 mm
CCCC[C@@H](C)/C=C(C)/C=C(\C)C(=O)N/C(=C/[C@@](C)(O)/C=C/C=C/C=C/C(=O)NC1=C(O)CCC1=O)C(=O)[C@@H]1CO1	MIC			1	broth dilution	200 µM
O=c1c(N2CCOCC2)c(N2CCN(S(=O)(=O)Cc3ccccc3)CC2)cnn1-c1ccccc1	MIC			ND125	broth dilution	25 µg/mL

For reference, 2 entries again:

SMILES,read-out,conditions,tested at,strain,method,result
O=c1c(N2CCOCC2)c(N2CCN(S(=O)(=O)Cc3ccccc3)CC2)cnn1-c1ccccc1,MIC,,,ND125,broth dilution,25 µg/mL
O=C(NN1C(=O)CSC1C1C(c2ccccc2)=Nc2ccccc21)N1c2ccccc2C=Cc2ccccc21,zone,,1000 µg/mL,MTCC-1782,agar diffusion,3 mm

Two numbers with a dash give a range or band. Rows are shuffled and stem from different studies. An empty or dashed field is not shown. Zone: diameter of growth inhibition.